Source: the supplement of paper PMC9931576
Human monoclonal antibodies against the spike receptor-binding domain (heavy:light variable regions). IC50 against pseudoviruses bearing the spike of naturally observed variants; lower = stronger; >10 µg/ml means not reached at the top dose. No active / inactive call. The stated detection limit is 0.0005 µg/ml; values near or below 0.001 µg/ml lie at the floor of the assay.

B1: BD55-4484 (protein)
chain 1: EAQLVESGGGLVQPGGSLRLSCAASGFTFSDYEMNWVRQAPGKGLEWVSFISSSANTIYYADSVKGRFTISRDNAKNSLYLQMNSLRAEDTAVYYCARTKGFDWLLNGGYYYGMDVWGQGATVTVSS
chain 2: QSVLTQPPSVSAAPGQRVTISCTGSSSNIGAGYDVHWYQQHPGTTPKLLIYASTNRPSGVPDRFSGSNSGTSASLAITGLQAEDEAYYYCQSYDFSVSGYVVFGGGTKLTVL
B2: BD55-5176 (protein)
chain 1: EVQLVQSGAEVKKPGESLKISCKGSGSSFITYWIGWVRQMPGKGLEWMGIIYPGDSDSRYSSSFQGQVTISADKAISTAYLQWHSLKASDTAMYFCVGTSGYLGDAFDSWGQGTMVTVSS
chain 2: DIVMTQSPDSLAVSLGERATIICRSSQSVLHSSVNKNYLAWYQQKPRQPPKLLMYWASTRESGVPDRFSGSGSGTDFSLTISSLQAEDVAVYYCQQYYTSPYTFGQGTKLEIK
B3: BD55-5183 (protein)
chain 1: QVQLVQSGGEVKKPGSSVKVSCRASGGTFSGYTISWVRRAPGQGLEWMGGIIPMYGAANYAQKFQGRVTISAETSTGTAYMELSGLTSDDTAMYYCARDLGGEDITVAGKAPDYWGQGTLVTVSS
chain 2: DIQMTQSPSSLSASVGDRVTVTCRASQSISKYLNWYQERPGKAPKLLIYTASSLPSEVPSRFSGSGFGTDFTLTISGLQPEDFATYYCQQSYSLPYTFGQGTKLEIK
B4: BD55-4664 (protein)
chain 1: QVQLQQWGAGLLRPSETLSLTCAVSGGSFSGYYWSWIRQPPGKGLEWIGEINHTGGTNYNPSLKSRVTVSIDMSRNQFSVKLNSLTAADTAVYFCAREAPDYFDSSGYRFDYWGQGALVTISS
chain 2: QSALTQPASVSGSPGQSITISCTGTSNDVGGYNYVSWYQQHPGKAPKLIIYDVTSRPSGISNRFSGSKSGNTASLTISGLQAEDEADYYCCSYTRSFTRVFGGGTKLTVL
B5: BD55-5167 (protein)
chain 1: QITLKESGPTLVKPTQTLTLTCTFSGFSLTTTGMGVGWIRQPPGKAPEWLALIYWLDDTRYSPSLESRLTLTKDTSKNLVVLTMTNMDPVDTATYYCAHLYYDSSSGYDTTGPDAFDFWGQGTMVTVSP
chain 2: AIQITQSPSSLSASPGDRVTITCRASQGISSFLAWYQQRRGRAPKLLIHSASTLQNGVPSRISGSGSGTDFTLTITGLQSEDFATYYCQQYYSYPPTFGHGTKVEF
B6: BD55-5195 (protein)
chain 1: QLQLQESGPRLVKPSETLSLTCSVSGGSIRSNSDYWAWIRQSPGQGLEWIGSISHSGSTYYNPSLKSRVSIFVDTSSNQFSLNLTSVTAADTAVYHCARHPSSGWLILWFDPWGQGTLVTVSS
chain 2: EIVLTQSPGTLSLSPGERATLSCRASQSISSNFLAWYQQKPGQAPRLLIYGASNRATDIPDRFSGSGSGTDFTLTVRRLEPEDFAVYYCHQYDTSPQTFGQGTKVEIK

These binders were tested against SARS-CoV-2 Omicron BA.1 spike pseudovirus (assay: pseudovirus neutralization IC50; higher = weaker neutralization).
Description: (§1)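 Single-round VSV luciferase pseudovirus mixed with antibody dilutions for 1 h and put on Huh-7 cells for about a day; IC50 from the dose curve.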
B1 was tested, and the “pseudovirus neutralization IC50” value was 0.0623 µg/mL. In the case of B2, the “pseudovirus neutralization IC50” value is reported as greater than 10 µg/mL. With B3 the “pseudovirus neutralization IC50” value was greater than 10 µg/mL. In the case of B4, the “pseudovirus neutralization IC50” value is reported as 0.209 µg/mL. For B5, the “pseudovirus neutralization IC50” value was greater than 10 µg/mL. In the case of B6, the “pseudovirus neutralization IC50” value is reported as greater than 10 µg/mL.

These binders were tested against SARS-CoV-2 Omicron BA.2 spike pseudovirus in the same assay as above.
Description: as §1
B1 was tested, and the “pseudovirus neutralization IC50” value was 0.26 µg/mL. B2 was tested, and the “pseudovirus neutralization IC50” value was greater than 10 µg/mL. In the case of B3, the “pseudovirus neutralization IC50” value is reported as greater than 10 µg/mL. In the case of B4, the “pseudovirus neutralization IC50” value is reported as 0.242 µg/mL. With B5 the “pseudovirus neutralization IC50” value was greater than 10 µg/mL. With B6 the “pseudovirus neutralization IC50” value was greater than 10 µg/mL.

Each binder was assayed against SARS-CoV-2 Omicron BA.2.75 spike pseudovirus in the same assay as above.
Description: as §1
With B1 the “pseudovirus neutralization IC50” value was 0.299 µg/mL. For B2, the “pseudovirus neutralization IC50” value was greater than 10 µg/mL. In the case of B3, the “pseudovirus neutralization IC50” value is reported as greater than 10 µg/mL. For B4, the “pseudovirus neutralization IC50” value was 0.549 µg/mL. For B5, the “pseudovirus neutralization IC50” value was greater than 10 µg/mL. For B6, the “pseudovirus neutralization IC50” value was greater than 10 µg/mL.

Each binder was assayed against SARS-CoV-2 Omicron BA.5 spike pseudovirus in the same assay as above.
Description: as §1
In the case of B1, the “pseudovirus neutralization IC50” value is reported as 1.12 µg/mL. In the case of B2, the “pseudovirus neutralization IC50” value is reported as greater than 10 µg/mL. In the case of B3, the “pseudovirus neutralization IC50” value is reported as greater than 10 µg/mL. B4 was tested, and the “pseudovirus neutralization IC50” value was 0.738 µg/mL. B5 was tested, and the “pseudovirus neutralization IC50” value was greater than 10 µg/mL. In the case of B6, the “pseudovirus neutralization IC50” value is reported as greater than 10 µg/mL.

What follows are binders tested against SARS-CoV-2 Omicron BQ.1.1 spike pseudovirus in the same assay as above.
Description: as §1
With B1 the “pseudovirus neutralization IC50” value was 0.317 µg/mL. For B2, the “pseudovirus neutralization IC50” value was greater than 10 µg/mL. In the case of B3, the “pseudovirus neutralization IC50” value is reported as greater than 10 µg/mL. In the case of B4, the “pseudovirus neutralization IC50” value is reported as greater than 10 µg/mL. With B5 the “pseudovirus neutralization IC50” value was greater than 10 µg/mL. For B6, the “pseudovirus neutralization IC50” value was greater than 10 µg/mL.

These binders were tested against SARS-CoV-2 Omicron XBB spike pseudovirus in the same assay as above.
Description: as §1
With B1 the “pseudovirus neutralization IC50” value was 1.21 µg/mL. B2 was tested, and the “pseudovirus neutralization IC50” value was greater than 10 µg/mL. With B3 the “pseudovirus neutralization IC50” value was greater than 10 µg/mL. B4 was tested, and the “pseudovirus neutralization IC50” value was greater than 10 µg/mL. B5 was tested, and the “pseudovirus neutralization IC50” value was greater than 10 µg/mL. In the case of B6, the “pseudovirus neutralization IC50” value is reported as greater than 10 µg/mL.

What follows are binders tested against SARS-CoV-2 early D614G spike pseudovirus in the same assay as above.
Description: as §1
B1 was tested, and the “pseudovirus neutralization IC50” value was 0.0264 µg/mL. B2 was tested, and the “pseudovirus neutralization IC50” value was greater than 10 µg/mL. With B3 the “pseudovirus neutralization IC50” value was 0.382 µg/mL. With B4 the “pseudovirus neutralization IC50” value was 0.0803 µg/mL. With B5 the “pseudovirus neutralization IC50” value was 0.0369 µg/mL. B6 was tested, and the “pseudovirus neutralization IC50” value was 0.319 µg/mL.
